Pooled drug test results. Numbers come from NIAID ChemDB, via PubChem.

All rows: growth or infection tests; agent: HIV-1; read-out: inhibition

a–b is a range or a potency band. An empty or dashed field is not shown. Rows are shuffled and stem from different studies. Inhibition is in % at the dose shown (toxicity tests: loss of growth or viability).

smiles | dose | setting | method | mutations | strain | cells | value
Nc1ncnc2c1ncn2COCCOP(=O)([O-])O[C@@H]1C[C@@H](COP(=O)([O-])O[C@@H]2C[C@@H](COP(=O)([O-])O[C@@H]3C[C@@H](CO)O[C@H]3n3cnc4c(N)[n+](Cc5ccccc5)cnc43)O[C@H]2n2cnc3c(N)ncnc32)O[C@H]1n1cnc2c(N)ncnc21 | 0.01 µM |  | syncytia |  |  | SupT1 + Sup-T1 | 0%
CN(C)c1ccc(Nc2c3ccc(NC(=O)CCN4CCCC4)cc3nc3cc(NC(=O)CCN4CCCC4)ccc23)cc1 | 8.4 µM |  | GFP / single cycle |  | IIIB | MT-4 | 58%
O=C(O)CCCCCCCCCCCc1ncc[nH]1 | 10 µg/mL |  | cytopathic effect |  |  | CEM | 5%
C[C@H]1CN(C(=O)c2ccccc2)CCN1C(=O)C(=O)c1c[nH]c2c([N+](=O)[O-])cccc12 | 10 µM |  | luciferase |  |  | HeLa + HELA CD4+/CCR5 | 84%
C=C(C)[C@@H]1CC[C@]2(C(=O)O)CC[C@]3(C)C(CCC4[C@@]5(C)CC[C@H](OC(=O)CN(OC)C6O[C@@H](CO)[C@H](O)[C@H](O)[C@H]6O)C(C)(C)C5CC[C@]43C)C12 | 10 µM |  | cytopathic effect |  | IIIB |  | 5%
O=C(O)CCCCCCCCCCCCn1ncnn1 | 10 µg/mL |  | cytopathic effect |  |  | CEM | 16%
C=C(C)[C@@H]1CC[C@]2(C(=O)O)CC[C@]3(C)C(CCC4[C@@]5(C)CC[C@H](OC(=O)CN(OC)C6O[C@@H](C)[C@H](O)[C@@H](O)[C@H]6O)C(C)(C)C5CC[C@]43C)C12 | 10 µM |  | cytopathic effect |  | IIIB |  | 14%
CN1C(=O)[C@@H](Cc2ccccc2)NC1=S | 1 µg/mL |  | RT activity |  |  | MT-4 | 13%
c1ccc2c(-c3ccc(-c4ccc(-c5ccc(-c6cccc7ccccc67)s5)c5ccccc45)s3)cccc2c1 | 4 µM |  | p24 / ELISA / antigen |  | IIIB | C8166 | 65.38%
N#Cc1cc(Cl)cc(Oc2c(Cl)ccc3c2nnn3Cc2[nH]nc3nc(N)ccc23)c1 | 0.036 µM | 50% human serum |  |  |  | MT-4 | >95%
Nc1ccn([C@H]2CC=C[C@@H](CO)O2)c(=O)n1 | 100 µM |  | ELISA |  | IIIB | MT-4 | 0%
Cc1cc(C)c(S(=O)(=O)OCC2OC3OC4C(CO)OC(OC5C(CO)OC(OC6C(CO)OC(OC7C(CO)OC(OC8C(CO)OC(OC9C(C[n+]%10ccccc%10)OC(OC2C(O)C3O)C(O)C9O)C(O)C8O)C(O)C7O)C(O)C6O)C(O)C5O)C(O)C4O)c(C)c1 | 62.5 µg/mL |  | cytopathic effect / trypan blue |  | KK-1(AIDS) | MT-4 | 100%
CN1C2N=CN=C(N)C2=NC1c1cn(CCCP(=O)(O)O)nn1 | 100 µM |  |  |  | IIIB | CEM | 0%
[N-]=[N+]=NCCCCCCCCCCCC(=O)O | 4 µM |  | cytopathic effect |  | RF | CEM | 82%
O=c1c(-c2nnc(-c3ccccc3)s2)cnc2ccccn12 | 100 µM |  | single cycle |  | NL4-3 | HeLa | 33%
O=S(=O)(O)c1ccc(-c2c3nc(c(-c4ccc(S(=O)(=O)O)cc4)c4ccc([nH]4)c(-c4ccc(S(=O)(=O)O)cc4)c4nc(c(-c5ccccc5)c5ccc2[nH]5)C=C4)C=C3)cc1 | 0.5 µg/mL |  | β-galactosidase |  | IIIB | MAGI | 50%
Cc1cn([C@H]2C[C@H](N=[N+]=[N-])[C@@H]([C@H](C)O)O2)c(=O)[nH]c1=O | 200 µg/mL |  | cytopathic effect / trypan blue |  | IIIB | MT-4 | 0%
CCN(CC)C(=S)N=Nc1c(O)n(C)c2ccccc12 | 0.6 µg/mL | chronic infection | plaque count |  |  | H9/HIV-1 + H9 | 100%
Cc1nnc(C(=O)NC(C)(C)c2nc(C(=O)NCc3ccc(F)cc3)c(O)c(=O)n2C)o1 | 0.05 µM |  | luciferase / reporter gene |  | R9 | TZM-bl | 80%
CCOP(=O)(CCn1cc(N2C=CC(NC(C)=O)NC2=O)nn1)OCC | 100 µM |  |  |  | IIIB | CEM | 0%
Nc1ncnc2c1ncn2COCCOP(=O)([O-])O[C@@H]1[C@H](O)[C@@H](COP(=O)([O-])O[C@@H]2[C@H](O)[C@@H](COP(=O)([O-])O[C@@H]3[C@H](O)[C@@H](CO)O[C@H]3n3cnc4c(N)ncnc43)O[C@H]2n2cnc3c(N)ncnc32)O[C@H]1n1cnc2c(N)ncnc21 | 300 µM |  | syncytia |  |  | SupT1 + Sup-T1 | 99%
COc1ccc(/C=C/C(=O)O[C@H]2[C@H](OC3OC=C(C(=O)O)[C@H]4CC[C@](C)(O)[C@@H]34)O[C@H](CO)[C@@H](O)[C@@H]2O)cc1 | 2.5 µg/mL |  | p24 / antigen / PCR |  | SA | PBMC | >99%
CC(C)C[C@H](NC(=O)c1ccc(NC(=O)[C@@H](N)Cc2c[nH]c3ccccc23)c(OCCc2c[nH]c3ccccc23)c1)C(=O)O | 50 µM |  | luciferase / cell fusion |  | NL4-3 | TZM-bl | 2%
NCCSSCCN | 10 µM |  | p24 |  | IIIB | PBL | 35%
Cc1ccc(C)c(NS(=O)(=O)c2cc(C(=O)NCc3ccccn3)ccc2Cl)c1 | 1 µM |  | p24 | 3TC-resistant | Clinical isolate | C8166 | 90%
C=C(C)[C@@H]1CC[C@]2(C(=O)O)CC[C@]3(C)C(CCC4[C@@]5(C)CC[C@H](OC(=O)CN(OC)[C@H]6OC[C@H](O)[C@@H](O)[C@H]6O)C(C)(C)C5CC[C@]43C)C12 | 10 µM |  | cytopathic effect |  | IIIB |  | 5%
COC(=O)c1cccc2c(C(=O)C(=O)N3CCN(C(=O)c4ccccc4)C(C(C)(C)C)C3)c[nH]c12 | 10 µM |  | luciferase |  |  | HeLa + HELA CD4+/CCR5 | 87%
CN1C2N=CN=C(N)C2=NC1c1cn(CP(=O)(O)O)nn1 | 100 µM |  |  |  | IIIB | CEM | 0%
C[C@H]1CN(C(=O)c2ccccc2)CCN1C(=O)C(=O)c1c[nH]c2cccc(F)c12 | 10 µM |  | luciferase |  |  | HeLa + HELA CD4+/CCR5 | >98%
O=C(Nc1ccc(Cl)cc1)N(CCCN1CCC(Cc2ccccc2)CC1)c1ccccc1 | 0.16 µM |  | β-galactosidase |  | BaL | MAGI + MT-4 | 98%
O=C(C(=O)N1CCN(C(=O)c2ccccn2)CC1)c1c[nH]c2cccc(F)c12 | 10 µM |  | luciferase |  |  | HeLa + HELA CD4+/CCR5 | >98%
COc1ccc(-c2nnc(-c3cnc4ccccn4c3=O)s2)cc1 | 100 µM |  | single cycle |  | NL4-3 | HeLa | 28%
O=C(NCCc1ccccc1)Nc1cnccn1 | 10 µg/mL |  | cytopathic effect / XTT |  |  | MT-4 | 100%
CC(C)CN(C[C@@H](O)[C@H](Cc1ccccc1)NC(=O)O[C@H]1CO[C@H]2OCC[C@H]21)S(=O)(=O)c1ccc2nc(NC3CCN(C4CCCC4)CC3)sc2c1 | 94.7 nM |  | reporter gene |  | LAI | MT-4 | 90%
O=C(C(=O)N1CCN(C(=O)c2ccc(Br)o2)CC1)c1c[nH]c2c(F)ccc(F)c12 | 10 µM |  | luciferase |  |  | HeLa + HELA CD4+/CCR5 | >98%
O=C(O)CCC(CCC(=O)O)(CCC(=O)O)NC(=O)CCC(CCC(=O)NC(CCC(=O)O)(CCC(=O)O)CCC(=O)O)(CCC(=O)NC(CCC(=O)O)(CCC(=O)O)CCC(=O)O)NC(=O)CCCOC(=O)C1(C(=O)OCCCC(=O)NC(CCC(=O)NC(CCC(=O)O)(CCC(=O)O)CCC(=O)O)(CCC(=O)NC(CCC(=O)O)(CCC(=O)O)CCC(=O)O)CCC(=O)NC(CCC(=O)O)(CCC(=O)O)CCC(=O)O)C2c3cc4c5c6c3-c3c(cc7c8c3C6C3c6c-5c(cc5ccc9cc(c-8c3c9c65)C7)C4)C21 | 0.7 µM |  | cytopathic effect | 3TC-resistant (RT M184V) |  | PBMC | 90%
Nc1ccn([C@H]2CC[C@@H](CO)O2)c(=O)n1 | 0.5 µM |  | cytopathic effect / trypan blue |  | LAV | MT-2 | 60%
CC(=O)O[C@H]1CC[C@@H](O)CC[C@@H](C)/C=C/[C@@]2(C)CC[C@@H](C(C)(C)OC(C)=O)[C@H]12 | 6.25 µM |  | cytopathic effect / MTT |  |  | MT-2 | 83%
CCCCCC(=O)NCCCCCCC(=O)O | 10 µg/mL |  | cytopathic effect |  |  | CEM | 1%
C[C@H]1/C=C/[C@@]2(C)CC[C@@H](C(C)(C)O)[C@@H]2[C@@H](O)C[C@](C)(O)/C=C/C1 | 6.25 µM |  | cytopathic effect / MTT |  |  | MT-2 | 52%
O=c1ccn([C@@H]2C=CC[C@@H](CO)O2)c(=O)[nH]1 | 100 µM |  | ELISA |  | IIIB | MT-4 | 0%
O=c1cc(C(F)(F)F)[nH]n(-c2ccc(F)cc2)c1=O | 10 µM |  | MTT |  |  | TZM-bl | 11.61%
CC[C@H](CO)Nc1nc(NCc2ccc(-c3ccccn3)cc2)n2ncc(C(C)C)c2n1 | 0.05 µM |  | trypan blue |  |  | ACH2 | 75%
NCCS | 100 µM |  | cytopathic effect / MTT |  | BaL | Macrophage | 100%
O=C(NCc1ccc(F)cc1)c1c(C(F)(F)F)[nH]n(C/C=C/c2ccccc2)c(=O)c1=O | 10 µM |  | MTT |  |  | TZM-bl | -27.2%
N#Cc1cc(Cl)cc(Oc2cc(OCc3[nH]nc4ncccc34)ccc2Cl)c1 | 0.022 µM |  |  | Y181C |  | MT-4 | >95%
C=C(C)[C@@H]1CC[C@]2(C(=O)O)CC[C@]3(C)C(CCC4[C@@]5(C)CC[C@H](OC(=O)CN(OC)[C@@H]6O[C@H](CO)[C@@H](O)[C@@H](O)[C@@H]6O)C(C)(C)C5CC[C@]43C)C12 | 10 µM |  | cytopathic effect |  | IIIB |  | 6%
O=C1[C@@H](Cc2ccccc2)NC(=S)N1c1ccccc1 | 100 µg/mL |  | cytopathic effect / XTT |  |  | MT-4 | 99–100%
CC[C@@H](O)[C@]1(C)C[C@H](C)[C@@](O)([C@H]2C[C@H](C)[C@H]([C@]3(C)CC[C@H]([C@@H]4CC[C@@]5(O[C@H]([C@@H](C)[C@@H](OC)[C@H](C)C(=O)O)[C@H](C)[C@@H](OC)[C@H]5C)O4)O3)O2)O1 | 10 µg/mL |  | MTT / ELISA |  |  |  | 100%
O=c1c(-c2nnc(-c3ccc(Cl)cc3)o2)cnc2ccccn12 | 100 µM |  | single cycle |  | NL4-3 | HeLa | 26%
CC[C@@H]1C=CC[C@@H](n2cnc3c(N)ncnc32)O1 | 100 µM |  | ELISA |  | IIIB | MT-4 | 0%
O=C(NCc1ccc(F)cc1)c1c(C(F)(F)F)[nH]n(CC2CCCO2)c(=O)c1=O | 10 µM |  | MTT |  |  | TZM-bl | -3.02%
CC(=O)N(C)CCN(C)c1nc(C(=O)NCc2ccc(F)cc2)c(O)c2ncccc12 | 0.156 µM | 10% FBS | p24 |  |  | MT-4 | >95%
O=S(=O)(O)c1ccc(-c2c3nc(c(-c4ccc(S(=O)(=O)O)cc4)c4ccc([nH]4)c(-c4ccc(S(=O)(=O)O)cc4)c4nc(c(-c5ccc(S(=O)(=O)O)cc5)c5ccc2[nH]5)C=C4)C=C3)cc1 | 50 µg/mL |  | β-galactosidase |  | IIIB | MAGI | 93%
CCOC(=O)/C=C/c1ccc(OC(=O)CCC(=O)Oc2c(C)c(C)c3c(c2C)CC[C@@](C)(CCC[C@H](C)CCC[C@H](C)CCCC(C)C)O3)cc1 | 5 µM |  |  |  |  | U1/HIV-1 (TNF-alpha stimulated) + U1 | 41%
Cc1c2ccnc(Cl)c2cc2c3cn(C)ccc-3nc12 | 0.1 µM |  | p24 / ELISA |  |  | PBMC | 0%
C/C(=C(/CCO)SS/C(CCO)=C(\C)N(C=O)Cc1cnc(C)nc1N)N(C=O)Cc1cnc(C)nc1N | 250 µM |  |  |  | LAV-1 | CEM/LAV-1 + CEM | 75%
O=C(NCCc1ccccc1)Nc1cncc(Cl)n1 | 10 µg/mL |  | cytopathic effect / XTT |  |  | MT-4 | 49–100%
Nc1ccn([C@@H]2CC=C[C@@H](CO)O2)c(=O)n1 | 100 µM |  | ELISA |  | IIIB | MT-4 | 0%
CCCCCCCCC(=O)CCCCC(=O)O | 10 µg/mL |  | cytopathic effect |  |  | CEM | 34%
N#Cc1csc(NC(=O)NCCc2ccccc2)n1 | 100 µg/mL |  | RT activity |  |  | MT-4 | 98%
CC[C@H](C)[C@H](NC(=O)C[C@H](O)[C@H](CC(C)C)NC(=O)[C@H](C)NC(=O)[C@H](CCC(=O)O)NC(C)=O)C(N)=O | 200 µM |  | ELISA / antigen |  | IIIB | MT-4 | 10%
CC#C[C@]1(O)CC[C@H]2[C@@H]3CCC4=CC(=O)CCC4=C3[C@@H](c3ccc(N(C)C)cc3)C[C@@]21C | 0.5 µM |  | GFP |  | NL4-3-EGFP | CEMx174 + CEM | 49.1%
COc1ccc(Br)c2[nH]cc(C(=O)C(=O)N3CCN(C(=O)c4ccccn4)C[C@H]3C)c12 | 10 µM |  | luciferase |  |  | HeLa + HELA CD4+/CCR5 | >98%
Nc1ncnc2c1ncn2COCCOP(=O)(O)O[C@@H]1C[C@@H](COP(=O)(O)O[C@@H]2C[C@@H](COP(=O)(O)O[C@@H]3C[C@@H](CO)O[C@H]3n3cnc4c(NCc5ccccc5)ncnc43)O[C@H]2n2cnc3c(N)ncnc32)O[C@H]1n1cnc2c(N)ncnc21 | 10 µM |  | syncytia |  |  | SupT1 + Sup-T1 | 86%
Cc1cccc(C)c1OCC(=O)N[C@@H](Cc1ccccc1)[C@H](O)[C@@H](O)[C@@H]1CCCN1C(=O)COc1c(C)cccc1C | 0.000001 µM |  | MTT |  | IIIB | MT-2 | 20%
CC(=O)NC1C=CN(c2cn(CCP(=O)(O)O)nn2)C(=O)N1 | 100 µM |  |  |  | IIIB | CEM | 0%
NS(=O)(=O)c1ccc(NC(=O)c2ccccc2SSc2ccccc2C(=O)Nc2ccc(S(N)(=O)=O)cc2)cc1 | 10 µM |  | virus yield |  | NL4-3 | HeLa P4 + HeLa | 90%
N#Cc1cc(Cl)cc(Oc2c(Cl)ccc3c2ncn3Cc2[nH]nc3ncccc23)c1 | 0.39 µM | 50% human serum |  |  |  | MT-4 | >95%
O=C(NCCc1ccccc1)Nc1ccccc1 | 100 µg/mL |  | cytopathic effect / XTT |  |  | MT-4 | 0%